Compound potency records, mixed from different reports. Data source: NIAID ChemDB in PubChem.

Shared fields: tests in culture; species: Epstein-Barr virus; endpoint: EC50

a–b is a range or a potency band. Rows are shuffled and stem from different studies. Blank or dashed fields: not listed here. ECn: concentration that inhibits the pathogen or its effect by n%.

compound,strain or isolate,cells,method,result
CSc1nc(N)nc2c1ncn2/C=C1/C[C@@H]1CO,-,Akata,hybridisation,2.3 µM
Cc1cn([C@H]2O[C@@H](CO)[C@H](O)[C@H]2F)c(=O)[nH]c1=O,-,H-1,-,<5 µM
O=C(NCc1ccc(Cl)cc1)c1cn2c3c(cc(CN4CCOCC4)cc3c1=O)OC(c1cccnc1)C2,-,DAUDI,antigen,0.9 µM
Nc1cn(/C=C2/C[C@H]2CO)c(=O)[nH]c1=O,-,DAUDI,ELISA,<0.41 µM
CCCCCCCCCCCCCCCCOP(=O)(O)CO[C@H](CO)Cn1ccc(N)nc1=O,-,DAUDI,hybridisation,0.6 µM
Cc1cn([C@@H]2O[C@H](CO)[C@H]2CO)c(=O)[nH]c1=O,P3HR-1,HFF,plaque count,>100 µg/mL
Nc1ncc2c(ncn2/C=C2\CC2CO)n1,-,-,ELISA,>100 µM
O=c1[nH]c(=O)n([C@H]2C[C@H](O)[C@@H](CO)O2)cc1C(O)C(Cl)Cl,P3HR-1,RAJI,plaque count,22.3 µM
COC(C)c1cn([C@H]2C[C@H](O)[C@@H](CO)O2)c(=O)[nH]c1=O,P3HR-1,HFF,cytopathic effect,12.1 µM
CC1(C)[C@@H](O[C@H]2O[C@H](C(=O)O)[C@@H](O)[C@H](O)[C@H]2O[C@@H]2O[C@H](C(=O)O)[C@@H](O)[C@H](O)[C@H]2O)CC[C@]2(C)[C@H]3C(=O)C=C4[C@@H]5C[C@@](C)(C(=O)O)CC[C@]5(C)CC[C@@]4(C)[C@]3(C)CC[C@@H]12,-,RAJI,-,40 µM
Nc1ncnc2c1ncn2[C@H]1C[C@]12C[C@H]2CO,-,-,-,22 µM
CCOc1nc(N)nc2c1ncn2/C=C1/C[C@@H]1CO,-,Akata,hybridisation,<0.16 µM
Nc1ncc2c(ncn2/C=C2/CC2CO)n1,-,-,ELISA,>100 µM
CC(C)(C)COc1nc(N)nc2c1ncn2/C=C1/C[C@@H]1CO,-,Akata,hybridisation,4.8 µM
CCCCCCCCCCCCOCCCOP(=O)(O)CO[C@H](CO)Cn1ccc(N)nc1=O,-,DAUDI,hybridisation,0.4 µM
CC(C)Nc1nc2cc(Cl)c(Cl)cc2n1[C@H]1O[C@@H](CO)[C@H](O)[C@@H]1O,-,DAUDI,ELISA,4.3 µM
Nc1nc2ncn(/C=C3/C(F)C3(CO)CO)c2c(=O)[nH]1,-,Akata,hybridisation,>100 µM
COC(c1cn([C@H]2C[C@H](O)[C@@H](CO)O2)c(=O)[nH]c1=O)C(I)I,P3HR-1,RAJI,plaque count,26.4 µM
CCCCSc1nc(N)nc2c1ncn2/C=C1/C[C@@H]1CO,-,Akata,hybridisation,2.5 µM
Nc1nc2c(ncn2[C@@H]2C[C@H](O)[C@@H](O)[C@H]2O)c(=O)[nH]1,-,DAUDI,ELISA,0.78 µg/mL
CCCCCCCC/C=C\CCCCCCCOCCCOP(=O)(O)CO[C@H](CO)Cn1ccc(N)nc1=O,-,DAUDI,hybridisation,0.4 µM
COC(=O)C(C)NP(=O)(OC[C@@H]1C/C1=C\n1cc(N)c(=O)[nH]c1=O)Oc1ccccc1,-,DAUDI,ELISA,14.4 µM
CC(C)Nc1nc2cc(Cl)c(Cl)cc2n1[C@H]1O[C@@H](CO)[C@H](O)[C@@H]1O,-,Akata,-,0.15–1.1 µM
Cn1cc(C(=O)NCc2ccc(Cl)cc2)c(=O)c2cc(CN3CCOCC3)ccc21,2 isolates,-,-,0.17 µM
Nc1nc(N)c2ncn(/C=C3\CC3(CO)CO)c2n1,-,P3HR-1,ELISA,<0.3 µM
COC(=O)C(C)NP(=O)(OC[C@@H]1C/C1=C/n1cc(N)c(=O)[nH]c1=O)Oc1ccccc1,-,DAUDI,ELISA,0.65 µM
CN1CCN(n2cc(C(=O)NCc3ccc(Cl)cc3)c(=O)c3cc(CN4CCOCC4)ccc32)CC1,-,HFF,plaque count,0.11 µM
OC[C@H]1O[C@@H](n2c(Br)nc3cc(Cl)c(Cl)cc32)[C@H](O)[C@@H]1O,-,DAUDI,ELISA,>74 µM
CCCSc1nc(N)nc2c1ncn2/C=C1/C[C@@H]1CO,-,Akata,hybridisation,1.8 µM
Nc1nc(Cl)c2ncn(/C=C3/C[C@H]3CO)c2n1,-,DAUDI,ELISA,1.2 µM
Nc1nc2c(ncn2C=C2CC2CO)c(=O)[nH]1,-,DAUDI,-,1.4 µM
COC(c1cn([C@H]2C[C@H](O)[C@@H](CO)O2)c(=O)[nH]c1=O)C(Cl)Cl,P3HR-1,RAJI,plaque count,>28.2 µM
O=c1[nH]c(=O)n([C@@H]2O[C@H](CO)[C@@H](O)[C@@H]2O)cc1/C=C/Br,-,P3HR-1,cytopathic effect,0.26 µM
Nc1nc2c(ncn2COC(CO)CO)c(=O)[nH]1,-,H-1,-,5 µM
Nc1nc2c(ncn2C=C2CC2CO)c(=O)[nH]1,-,H-1,ELISA,50 µM
Nc1nc2c(ncn2C/C=C2/CC2P(=O)(O)O)c(=O)[nH]1,-,DAUDI,-,1.1 µM
COc1ncnc2c1ncn2[C@@H]1O[C@H](CO)[C@@H](O)[C@@H]1O,-,P3HR-1,cytopathic effect,50 µM
CC(=O)N[C@H]1C[C@@H](n2cnc3c(N)ncnc32)[C@H](O)[C@@H]1O,-,HFF,-,>100 µg/mL
Nc1nc2c(ncn2COCCO)c(=O)[nH]1,-,H-1,-,<50 µM

3 of the rows above, restated:

compound,strain or isolate,cells,method,result
COC(c1cn([C@H]2C[C@H](O)[C@@H](CO)O2)c(=O)[nH]c1=O)C(Cl)Cl,P3HR-1,RAJI,plaque count,>28.2 µM
Nc1ncc2c(ncn2/C=C2\CC2CO)n1,-,-,ELISA,>100 µM
OC[C@H]1O[C@@H](n2c(Br)nc3cc(Cl)c(Cl)cc32)[C@H](O)[C@@H]1O,-,DAUDI,ELISA,>74 µM